Anti-infective test results gathered from many reports (values: NIAID ChemDB through PubChem).

All rows: whole-cell or culture tests; species: HIV-1; endpoint: EC50

ECn: concentration that inhibits the pathogen or its effect by n%. Lines come from different laboratories, so protocols vary. An empty or dashed field is not shown.

| smiles | cells | read by | strain or isolate | conditions | mutations | result |
|---|---|---|---|---|---|---|
| CO[P@](=O)(c1cc(C)cc(/C=C/C#N)c1)c1c(C(N)=O)[nH]c2ccc(Cl)c(F)c12 | MT-4 | - | BH10 | - | Y181C/K103N | 0.0035 µM |
| Cn1c2ccccc2c2c1cc(C#N)c(=O)n2-c1ccc([N+](=O)[O-])cc1 | HeLa | luciferase | NRTI resistant | - | RT-M41L D67N T69N K70R T215F K219E | 0.019 µM |
| CCN(c1nc(F)ccc1NC(C)(C)C)C1CCN(C(=O)c2cc3cc(NC(=O)N4CCN(C)CC4)ccc3[nH]2)CC1 | MT-2 | p24 / ELISA | IIIB | - | I401T | 0.0261 µM |
| CCn1nc(Cc2ccc(OC)cc2)cc1C1CCN(C[C@H]2CN([C@@H](C(=O)O)C(C)C)C[C@@H]2c2cccc(F)c2)CC1 | HeLa | β-galactosidase | BaL | - | - | <0.0004 µM |
| Cc1ccnc2c1NC(=O)c1cccnc1N2C1CC1 | CEM + CEM-SS | XTT | Oxathiin carboxanilide-resistant RT L100I | - | RT-L100I | 0.1 µM |
| CC(C)CN(C[C@@H](O)[C@H](Cc1ccccc1)NC(=O)O[C@H]1CCOC1)S(=O)(=O)c1ccc(N)cc1 | MT-2 | p24 / ELISA | IIIB | - | D437N | 0.0473 µM |
| CCn1nc(Cc2ccc(OC(F)(F)F)cc2)cc1C1CCN(C[C@H]2CN([C@@H](C(=O)O)C(C)(C)C)C[C@@H]2c2cccc(F)c2)CC1 | HeLa | β-galactosidase | BaL | - | - | <0.0012 µM |
| N#Cc1cc2[nH]c3ccccc3c2n(-c2ccc([N+](=O)[O-])cc2)c1=O | HeLa | luciferase | NNRTI-resistant | - | RT-Y188L | 0.156 µM |
| Cc1ccnc2c1NC(=O)c1cccnc1N2C1CC1 | C8166 | p24 / ELISA | NL4-3 | - | Y181C | 3.32 µM |
| C/C=C/CSc1cc(NC(=S)c2ccsc2C)ccc1Cl | CEM + CEM-SS | XTT | Calanolide A-resistant (RT T139I) | - | RT-T139I | 0.4 µM |
| CC(C)=CCN1Cc2cc(Cl)cc3[nH]c(=S)n(c23)C[C@@H]1C | MT-4 | - | - | - | RT-M41L T215Y A98G | <3 µM |
| CCn1nc(Cc2ccc(O)cc2)cc1C1CCN(C[C@H]2CN([C@@H](C(=O)O)C3CCCCC3)C[C@@H]2c2cccc(F)c2)CC1 | HeLa | β-galactosidase | BaL | 50% human serum | - | <0.033 µM |
| Cc1cn([C@H]2C[C@H](N=[N+]=[N-])[C@@H](CO)O2)c(=O)[nH]c1=O | CEM + CEM-SS | XTT | Pyridinone-resistant (RT K103N Y181C) | - | RT-K103N Y181C | 0.01 µM |
| Cc1cn([C@H]2C[C@H](N=[N+]=[N-])[C@@H](CO)O2)c(=O)[nH]c1=O | HeLa | luciferase | Recombinant | - | RT-M184V | 0.0304 µM |
| C#C[C@]1(CO)O[C@@H](n2cnc3c(N)nc(F)nc32)C[C@@H]1O | MT4-GFP | fluorescence | Clinical isolate | - | A400T | 0.00077 µM |
| Cc1cc(S(N)(=O)=O)ccc1NC(=O)COc1ccc(Cl)cc1C(=O)c1cc(Cl)cc(C#N)c1 | MAGI | β-galactosidase | NNRTI-resistant (RT K103N G190A) | - | RT-K103N G190A | 0.0041 µM |
| CCn1nc(Cc2ccc(F)cc2F)cc1C1CCN(C[C@H]2CN([C@@H](C(=O)O)C3CCCCC3)C[C@@H]2c2cccc(F)c2)CC1 | HeLa | β-galactosidase | BaL | - | - | <0.0004 µM |
| CC(=O)N1CCC(C(=O)N(CCCN2CCC(Cc3ccc(C(N)=O)cc3)CC2)c2ccc(C)c(Cl)c2)CC1 | U87 (CD4+ CXCR4+) + U87 | luciferase | R5X4 subtype B_1 recombinant | - | - | >19 µM |
| CCCc1cc(=O)oc2c3c(c4c(c12)OC(C)(C)C=C4)O[C@@H](C)[C@H](C)[C@@H]3O | CEM + CEM-SS | XTT | NL4-3 | - | RT-Y181C | 0.02 µM |
| Cc1ccc(S(=O)(=O)N(CC(C)C)C[C@@H](O)[C@H](Cc2ccccc2)NC(=O)O[C@H]2CO[C@H]3OCC[C@H]32)cc1 | MT-2 | p24 / ELISA | IIIB | - | K112M K113E V128I M200I H219P I401T R409K D437N L441P | 0.008 µM |
| O=c1[nH]cnc2c1ncn2[C@H]1CC[C@@H](CO)O1 | HT4 + HT4 LacZ-1 | plaque count | HXB2 | - | RT-M41L T215Y | 1.6 µM |
| CC[C@H](C)[C@H](C(=O)O)N1C[C@H](CN2CCC(c3cc(Cc4ccc(C)cc4)nn3CC)CC2)[C@@H](c2cccc(F)c2)C1 | HeLa | β-galactosidase | BaL | 50% human serum | - | <0.011 µM |
| CCCc1cc(=O)oc2c3c(c4c(c12)OC(C)(C)C=C4)O[C@H](C)[C@@H](C)[C@@H]3O | CEM + CEM-SS | XTT | NL4-3 | - | RT-L74V | 0.1 µM |
| Cc1cn([C@H]2C[C@H](N=[N+]=[N-])[C@@H](CO)O2)c(=O)[nH]c1=O | PBMC | cytopathic effect / XTT | CLADE D | clinical isolate | - | 0.01 µM |

3 of the rows above, restated:

| smiles | cells | read by | strain or isolate | conditions | mutations | result |
|---|---|---|---|---|---|---|
| CCn1nc(Cc2ccc(OC)cc2)cc1C1CCN(C[C@H]2CN([C@@H](C(=O)O)C(C)C)C[C@@H]2c2cccc(F)c2)CC1 | HeLa | β-galactosidase | BaL | - | - | <0.0004 µM |
| CC[C@H](C)[C@H](C(=O)O)N1C[C@H](CN2CCC(c3cc(Cc4ccc(C)cc4)nn3CC)CC2)[C@@H](c2cccc(F)c2)C1 | HeLa | β-galactosidase | BaL | 50% human serum | - | <0.011 µM |
| Cc1cn([C@H]2C[C@H](N=[N+]=[N-])[C@@H](CO)O2)c(=O)[nH]c1=O | CEM + CEM-SS | XTT | Pyridinone-resistant (RT K103N Y181C) | - | RT-K103N Y181C | 0.01 µM |